This assay concerns HIVluc-derived viruses carrying protease mutants resistant to multiple protease inhibitors (11803, 11805, 11806, 11807, 11808, 11809). Conditions: 2a 3 μM, Indinavir 0.1 μM during virus production; SupT1, luciferase normalized to ATP.

In the case of `CC(C)(C)NC(=O)[C@@H]1CN(Cc2cccnc2)CCN1C[C@@H](O)C[C@@H](Cc1ccccc1)C(=O)N[C@H]1c2ccccc2C[C@H]1O` [Indinavir], the “Effect on infectivity of multi protease inhibitor resistant viruses (FIG. 12)” value is “failed to significantly affect the infection of these viruses”.

(Values after patent US10358419B2, “1,3-dipolar [70]fulleropyrrolidinium iodide derivatives” (priority 2015, dated 2019).)
